Pooled drug test results. Numbers come from NIAID ChemDB, via PubChem.

Common to all: tests in culture; agent: HIV-1; cells: PBMC; measure: EC50

Blank or dashed fields: not listed here.

C[C@@H](CNC(=S)Nc1ccc(Cl)cn1)c1ccccc1 ; strain: IIIB ; read by: p24 ; value: <0.001 µM
O=C1N(Cc2ccc(CO)cc2)[C@H](Cc2ccccc2)[C@H](O)[C@@H](O)[C@@H](Cc2ccccc2)N1Cc1ccc(CO)cc1 ; strain: 9156 clinical isolate ; read by: p24 ; value: 0.09 µM
c1cc(CN2CCCNCCNCCCNCC2)ccc1CN1CCCNCCNCCCNCC1 ; strain: JSL ; mutations: MDR ; read by: p24 ; value: >1 µM
CCO/N=C(\c1ccc(Br)cc1)C1CCN(C2(C)CCN(C(=O)c3c(C)cc[n+]([O-])c3C)CC2)CC1 ; strain: ADA-M Clinical isolates ; value: <0.025 µM
Cc1cn([C@H]2C[C@H](N=[N+]=[N-])[C@@H](CO)O2)c(=O)[nH]c1=O ; strain: C011590 ; read by: p24 ; value: 0.02 µM
CCC[C@@H](c1ccc(C(F)(F)F)cc1)N1CCN(C2(C)CCN(C(=O)c3c(C)ncnc3C)CC2)C[C@@H]1C ; strain: RU570 Clinical isolates ; value: <0.00043 µM
Cc1cn([C@H]2C=C[C@@H](CO)O2)c(=O)[nH]c1=O ; strain: Recombinant ; mutations: RT-V75I F77L Q151M ; read by: p24 ; value: 0.08 µM
COC(=O)N[C@H](C(=O)N[C@@H](Cc1ccccc1)[C@@H](O)CN(Cc1ccc(-c2ccccn2)cc1)NC(=O)[C@@H](NC(=O)OC)C(C)(C)C)C(C)(C)C ; strain: Clinical isolate ; mutations: L10I K14R L33I M36I M46I F53I K55R I62V L63P A71V G73S V82A L90M I93L ; read by: p24 / luminescence ; setting: clinical isolate, multidrug-resistant ; value: 0.467 µM
COC(=O)[C@H](C)NP(=O)(OC[C@@H]1C=C[C@H](n2cc(C)c(=O)[nH]c2=O)O1)Oc1ccc(Br)cc1 ; strain: G190-6 NRTI resistant ; mutations: RT-M41L D67N K70R T215Y K219Q ; read by: p24 ; value: 0.0028 µM
CC(C)c1nc(CN(C)C(=O)N[C@H](C(=O)N[C@@H](Cc2ccccc2)C[C@H](O)[C@H](Cc2ccccc2)NC(=O)OCc2cncs2)C(C)C)cs1 ; strain: Clinical isolate ; mutations: PR-L10I K14R R41K M46L I54V L63P A71V V82A L90M I93L ; read by: p24 ; value: >1 µM
CCC(=O)c1ccc(F)c([C@@H]2C[C@@H]2NC(=O)Nc2ccc(C#N)cn2)c1O ; strain: 7324-1 ; read by: absorbance ; value: 0.0001 µM
OO ; strain: BaL ; read by: p24 ; value: >100 µM
O=c1[nH]cnc2c1ncn2[C@H]1CC[C@@H](CO)O1 ; strain: MOKW ; read by: p24 ; value: 0.48 µM
C[C@H](CNC(=S)Nc1ccc(Br)cn1)c1ccccc1 ; strain: IIIB ; read by: p24 ; value: 0.03 µM
Nc1ccn([C@H]2CC[C@@H](CO)O2)c(=O)n1 ; strain: Isolate 6856 ; read by: p24 ; value: 0.04 µM
C[C@H](NC(=O)[C@H](CCCN=C(N)N)NC(=O)c1ccc(CNCc2ccccn2)cc1)c1cccc2ccccc12 ; strain: YU-11 X4 clinical isolate ; read by: p24 ; value: 0.025 µM
CCC[C@@]1(CCc2ccccc2)CC(O)=C([C@H](CC)c2cccc(NS(=O)(=O)c3ccc(C(F)(F)F)cn3)c2)C(=O)O1 ; strain: Isolate UJ00007 ; read by: p24 ; value: <0.15 µM
CC(C)CN(C[C@@H](O)[C@H](Cc1ccccc1)NC(=O)O[C@H]1CCOC1)S(=O)(=O)c1ccc(N)cc1 ; strain: Clinical isolate ; mutations: PR-L10I I15V K20R M36I M46L I54V K55R I62V L63P K70Q V82A L89M ; read by: p24 ; value: 0.28 µM
S=C(NCCc1ccccn1)Nc1ccc(Br)cn1 ; strain: NRTI resistant (RT Y181C) A17 ; mutations: RT-Y181C ; read by: p24 ; value: 0.5 µM
Cc1cn([C@H]2C[C@H](N=[N+]=[N-])[C@@H](CO)O2)c(=O)[nH]c1=O ; strain: BCF07 ; mutations: RT-A98G V106I Y181C ; value: <0.01 µM
C[C@@H](NC(=S)Nc1ccc(Br)cn1)c1cccc2ccccc12 ; strain: NNRTI-resistant (RT Y181C K103N) A17V ; mutations: RT-Y181C K103N ; read by: p24 ; value: 0.287 µM
CC(C)(C)NC(=O)[C@@H]1CN(Cc2cccnc2)CCN1C[C@@H](O)C[C@@H](Cc1ccccc1)C(=O)N[C@H]1c2ccccc2C[C@H]1O ; strain: 52534-2 NRTI resistant recombinant ; mutations: RT-M41L T69ins L74V M184V L210W T215Y ; read by: RT activity ; value: 0.0122 µM
Cc1cc(C#N)cc(C)c1Oc1nc(Nc2ccc(C#N)cc2)nc(N)c1Br ; strain: 96USNG31 ; read by: absorbance ; value: 0.0002 µM
CC(C)=CCN1Cc2cc(Cl)cc3[nH]c(=S)n(c23)C[C@@H]1C ; strain: BCF06 ; mutations: RT-A98G K103R ; value: >6.25 µM
C[C@@H]1O[C@H]2OCCC[C@H]2[C@H]1OC(=O)N[C@@H](Cc1ccccc1)[C@H](O)CN1C[C@H]2CCCC[C@H]2C[C@H]1C(=O)NC(C)(C)C ; strain: MM ; mutations: PR-L10I K43T M46I I54V L63P A71V V82A L90M Q92K ; read by: p24 ; value: >1 µM
COc1ccc(S(=O)(=O)N(CC(C)C)C[C@@H](O)[C@H](Cc2ccccc2)NC(=O)O[C@H]2CO[C@H]3OCC[C@H]32)cc1 ; strain: ERS104PRE(PR-L63P) Clinical isolate ; mutations: PR-L63P ; read by: p24 ; value: 0.0007 µM
C[C@H]1O[C@@H]2OCCC[C@@H]2[C@@H]1OC(=O)N[C@@H](Cc1ccccc1)[C@H](O)CN1C[C@H]2CCCC[C@H]2C[C@H]1C(=O)NC(C)(C)C ; strain: TM ; mutations: PR-L10I K14R R41K M46I I54V L63P A71V V82A L90M I93L ; read by: p24 ; value: >1 µM
Cc1cn([C@H]2C[C@H](N=[N+]=[N-])[C@@H](CO)O2)c(=O)[nH]c1=O ; strain: TM ; mutations: MDR ; read by: p24 ; value: 0.1 µM
CCC(NC(=S)Nc1ccc(Cl)cn1)c1ccccc1 ; strain: IIIB ; read by: p24 ; value: 0.001 µM
c1cc(CN2CCCNCCNCCCNCC2)ccc1CN1CCCNCCNCCCNCC1 ; strain: IIIB X4 ; read by: antigen ; value: 0.002 µg/mL
Cc1cn([C@H]2C=C[C@@H](CO)O2)c(=O)[nH]c1=O ; strain: JSL ; mutations: MDR ; read by: p24 ; value: 0.1 µM
CC(C)Nc1cccnc1N1CCN(C(=O)c2cc3cc(NS(C)(=O)=O)ccc3[nH]2)CC1 ; strain: 477 clinical isolates delavirdine-resistant ; read by: p24 ; value: <6.7 µM
CCc1c(C(=O)c2cc(C)cc(C)c2)n(CC2CC=CC2)c(=O)[nH]c1=O ; strain: ROJO ; read by: cytopathic effect / XTT ; setting: clinical isolate ; value: 0.008 µM
Cc1csc(NC(=S)N[C@H](C)c2cccc3ccccc23)n1 ; strain: NNRTI-resistant (RT Y181C K103N) A17V ; mutations: RT-Y181C K103N ; read by: p24 ; value: 0.114 µM
C[C@@H]1O[C@@H]2OCCC[C@@H]2[C@@H]1OC(=O)N[C@@H](Cc1ccccc1)[C@H](O)CN1C[C@H]2CCCC[C@H]2C[C@H]1C(=O)NC(C)(C)C ; strain: MM ; mutations: PR-L10I K43T M46I I54V L63P A71V V82A L90M Q92K ; read by: p24 ; value: >1 µM
CC(C)Nc1cccnc1N1CCN(C(=O)c2cc3cc(NS(C)(=O)=O)ccc3[nH]2)CC1 ; strain: IIIB ; read by: p24 ; value: 0.009 µM
O=c1[nH]cnc2c1ncn2[C@H]1CC[C@@H](CO)O1 ; strain: VAU (RT-A98G) ; mutations: RT-A98G ; value: 0.5 µM
O=c1[nH]cnc2c1ncn2[C@H]1CC[C@@H](CO)O1 ; strain: Recombinant ; mutations: RT-F77L ; read by: p24 ; value: 0.2 µM
Cc1c(O)cccc1C(=O)N[C@@H](CSc1ccccc1)[C@H](O)CN1C[C@H]2CCCC[C@H]2C[C@H]1C(=O)NC(C)(C)C ; strain: Clinical isolate ; mutations: PR-L10I I15V E35D N37E K45R I54V L63P A71V V82T L90M I93L C95F ; read by: p24 ; value: >1 µM
Cc1cn([C@H]2C[C@H](N=[N+]=[N-])[C@@H](CO)O2)c(=O)[nH]c1=O ; strain: CLADE C ; read by: cytopathic effect / XTT ; value: 0.002 µM
Cc1cccc(C)c1OCC(=O)N[C@@H](Cc1ccccc1)[C@@H](O)C[C@H](Cc1ccccc1)NC(=O)[C@H](C(C)C)N1CCCNC1=O ; strain: ERS104pre ; mutations: L63P ; read by: p24 / luminescence ; value: 0.032 µM
Cc1cc(C#N)cc(C)c1Oc1nc(Nc2ccc(C#N)cc2)nc(N)c1Br ; strain: IIIB ; read by: p24 ; value: 0.002 µM
CC(C)(C)NC(=O)[C@@H]1C[C@@H]2CCCC[C@@H]2CN1C[C@@H](O)[C@H](Cc1ccccc1)NC(=O)[C@H](CC(N)=O)NC(=O)c1ccc2ccccc2n1 ; strain: MM ; mutations: MDR ; read by: p24 ; value: 0.37 µM
C[C@H](CNC(=S)Nc1ccc(Cl)cn1)c1ccccc1 ; strain: NNRTI-resistant (RT Y181C K103N) A17V ; mutations: RT-Y181C K103N ; read by: p24 ; value: >100 µM
CN[C@@H]1[C@H](O[C@@H]2OC[C@@H](O)[C@H](O)[C@H]2O)[C@@H](O)[C@H](O[C@H]2c3cc(C)c(C(=O)N[C@H](C)C(=O)O)c(O)c3-c3c(cc4c(c3O)C(=O)c3cc(OC)cc(O)c3C4=O)[C@@H]2O)O[C@@H]1C ; strain: BZ163 R5 CLADE F ; read by: p24 ; value: 11 µg/mL

The last 4 rows once more:

structure	strain	mutations	read by	setting	value
Cc1cc(C#N)cc(C)c1Oc1nc(Nc2ccc(C#N)cc2)nc(N)c1Br	IIIB	-	p24	-	0.002 µM
CC(C)(C)NC(=O)[C@@H]1C[C@@H]2CCCC[C@@H]2CN1C[C@@H](O)[C@H](Cc1ccccc1)NC(=O)[C@H](CC(N)=O)NC(=O)c1ccc2ccccc2n1	MM	MDR	p24	-	0.37 µM
C[C@H](CNC(=S)Nc1ccc(Cl)cn1)c1ccccc1	NNRTI-resistant (RT Y181C K103N) A17V	RT-Y181C K103N	p24	-	>100 µM
CN[C@@H]1[C@H](O[C@@H]2OC[C@@H](O)[C@H](O)[C@H]2O)[C@@H](O)[C@H](O[C@H]2c3cc(C)c(C(=O)N[C@H](C)C(=O)O)c(O)c3-c3c(cc4c(c3O)C(=O)c3cc(OC)cc(O)c3C4=O)[C@@H]2O)O[C@@H]1C	BZ163 R5 CLADE F	-	p24	-	11 µg/mL

Rows are shuffled and stem from different studies. ECn: concentration that inhibits the pathogen or its effect by n%.